Measurements reported in patent US20160106813A1 (CENTRE NATIONAL DE LA RECHERCHE SCHIENTIFIQUE (CNRS), priority 2013, published 2016).

Tested on: HIV-1 JRCSF
Assay type: cell-based
Details: MDLCs pretreated with the peptide, pulsed with HIV-1 JRCSF (R5), co-cultured a week with CD4+ TCs
Experimental: Peripheral blood mononuclear cells (PBMCs) from healthy donors were separated from whole blood by a standard Ficoll gradient. CD14+ monocytes and CD4+ TCs were obtained from PBMCs by negative magnetic selection (Stemcell Technologies, Grenoble, France) according to the manufacturer's instructions. MDLC were prepared and maintained as described (Masterson et al., Blood 100:701-703; Geissmann et al., J Exp Med 187:961-966.)

Cys(Acm)2,7-h-alpha-CGRP [reference compound]
HIV-1 transfer from Langerhans cells to TCs (in words): ineffective
